Anti-infective test results gathered from many reports (values: NIAID ChemDB through PubChem).

Shared fields: tests in culture; agent: HIV-1; method: syncytia; measure: EC50

Blank or dashed fields: not listed here. Conditions beyond the fields shown may differ between rows. ECn is the concentration giving n% inhibition of infection, replication or growth.

SMILES,changes,cells,strain or isolate,value
CC(C)Nc1cccnc1N1CCN(C(=O)c2cc3cc(NS(C)(=O)=O)ccc3[nH]2)CC1,RT-K103N,CEM,IIIB,0.27 µg/mL
Cc1cn([C@@H]2O[C@H](CO[Si](C)(C)C(C)(C)C)C3(OS(=O)(=O)C=C3N)[C@H]2O)c(=O)[nH]c1=O,,CEM,IIIB,>40 µM
Cc1cn([C@H]2C[C@H](N=[N+]=[N-])[C@@H](COC(=O)CCCC(=O)N3CCCN(C(=O)OC(C)(C)C)CCN(C(=O)OC(C)(C)C)CCCN(C(=O)OC(C)(C)C)CC3)O2)c(=O)[nH]c1=O,,MT-4,,0.1 µM
Cc1cn([C@H]2C[C@H](N=[N+]=[N-])[C@@H](CO)O2)c(=O)[nH]c1=O,RT-Y181C,CEM,IIIB nevirapine-resistant (RT Y181C),0.005 µM
Cc1cn([C@@H]2O[C@H](CO[Si](C)(C)C(C)(C)C)C3(OS(=O)(=O)C=C3N)[C@H]2O[Si](C)(C)C(C)(C)C)c(=O)n(C)c1=O,RT-E138K,CEM,IIIB,>20 µM
Cc1cn([C@H]2C[C@H](N=[N+]=[N-])[C@@H](CO)O2)c(=O)[nH]c1=O,,PBMC,,0.1 µM
Cc1c(N)nc(N)nc1OCCOCP(=O)(O)O,RT-K65R S68G T69I V75T Q151M,CEM,Clinical isolate DE434.4,1 µg/mL
CC(C)(C)OC(=O)N1CCCN(C(=O)OC(C)(C)C)CCN(C(=O)OC(C)(C)C)CCCN(CCCCC(=O)Nc2ccn([C@H]3CS[C@@H](COC(=O)CCCCN4CCCN(C(=O)OC(C)(C)C)CCN(C(=O)OC(C)(C)C)CCCN(C(=O)OC(C)(C)C)CC4)O3)c(=O)n2)CC1,,MT-4,,1 µM
Cc1ccnc2c1NC(=O)c1cccnc1N2C1CC1,RT-L100I,CEM,IIIB,0.06 µg/mL
O=c1[nH]cnc2c1ncn2[C@H]1CC[C@@H](CO)O1,RT-V179N,CEM,IIIB-Pyridinone(0.1)(RT-V179N,8.7 µM
Cc1cn([C@H]2C[C@H](N=[N+]=[N-])[C@@H](CO)O2)c(=O)[nH]c1=O,RT-M41L L210W T215Y,HT4 + HeLa,U317-8 Clinical isolate ZDV-resistant,2 µM
N#CCN1C(=O)N(Cc2cccc(F)c2)S(=O)(=O)c2cscc21,,MT-4,RF,0.3 µM
Nc1ncnc2c1ncn2CC(CF)OCP(=O)(O)O,RT-L100I E138K,CEM,IIIB TIBO R82913 STR-B02 (RT L100I E138K),4 µM
CC(C)Nc1cccnc1N1CCN(C(=O)c2cc3ccccc3[nH]2)CC1,RT-G190E,CEM,MN-QUIN(RT-G190E),4.4 µM
CCN1C(=O)N(Cc2cccc(Cl)c2)S(=O)(=O)c2cscc21,,MT-4,MN,0.8 µM
Cc1cn([C@@H]2O[C@H](CO[Si](C)(C)C(C)(C)C)C3(OS(=O)(=O)C=C3N)[C@H]2O[Si](C)(C)C(C)(C)C)c(=O)n(C)c1=O,RT-V106A,CEM,IIIB NEV(RT-V106A),2.5 µg/mL
CC(C)=CCOc1cc(NC(=S)c2ccoc2C)ccc1Cl,,CEM,IIIB,0.0018 ± 0.0004 µM
Nc1ccn([C@H]2CC[C@@H](CO)O2)c(=O)n1,RT-Y181C,CEM,IIIB-Nevirapine(1.0)(RT-Y181C),0.04 µM
N#CCN1C(=O)N(Cc2ccccc2)S(=O)(=O)c2cscc21,,MT-4,RF,2.4 µM
CCNc1cccnc1N1CCN(C(=O)c2cc3cc(OC)ccc3[nH]2)CC1,,CEM,IIIB,0.02 µg/mL
Nc1nc2c(ncn2[C@H]2CC[C@@H](CO)O2)c(=O)[nH]1,RT-E138K,CEM,IIIB TSAO-T(RT-E138K),3.5 µM
Nc1nc(N)c(C=O)c(OCCOCP(=O)(O)O)n1,,CEM,IIIB,1.3 µg/mL
Cc1cn([C@H]2C[C@H](N=[N+]=[N-])[C@@H](CO)O2)c(=O)[nH]c1=O,RT-V179D,CEM,IIIB,0.001 µg/mL
O=c1[nH]cnc2c1ncn2[C@H]1CC[C@@H](CO)O1,,CEM,IIIB,5 ± 1.4 µM
CCOCn1c(Cc2ccccc2)c(C(C)C)c(=O)[nH]c1=O,RT-E138K,CEM,IIIB,0.018 µg/mL
O=C1N(Cc2ccccc2)c2cscc2S(=O)(=O)N1Cc1ccccc1,,MT-4,RF,5.5 µM
CC(C)(C)OC(=O)N1CCCN(C(=O)OC(C)(C)C)CCN(C(=O)OC(C)(C)C)CCCN(CCCCC(=O)OC[C@H]2O[C@@H](n3ccc(N)nc3=O)CS2)CC1,,MT-4,,10 µM
C[C@H](Cn1cnc2c(N)ncnc21)OCP(=O)(O)O,RT-M41L V118I L210W T215Y,CEM,Clinical isolate C19,20 µg/mL
CCc1cc(NCc2nc3c(Cl)ccc(Cl)c3o2)c(=O)[nH]c1C,RT-G190E,CEM,MN-QUIN(RT-G190E),>3 µM
Cc1ccnc2c1NC(=O)c1cccnc1N2C1CC1,,PBL,IIIB,0.006 µg/mL
CC(C)(C)OC(=O)N1CCCN(C(=O)OC(C)(C)C)CCN(C(=O)OC(C)(C)C)CCCN(CCCCC(=O)OC[C@@H]2CC[C@H](n3ccc(N)nc3=O)O2)CC1,,MT-4,,0.5 µM
Cc1cn([C@@H]2O[C@H](CO[Si](C)(C)C(C)(C)C)C3(OS(=O)(=O)C=C3N)[C@H]2O[Si](C)(C)C(C)(C)C)c(=O)n(C)c1=O,RT-Y181C,CEM,IIIB-TSAO-m3T(10)(RT-Y181C),≥50 µg/mL
Cc1ccnc2c1NC(=O)c1cccnc1N2C1CC1,RT-L100I Y188H,CEM,IIIB TIBO R82913 STR-B22 (RT L100I Y188H),1.4 µM
Cc1cn([C@@H]2O[C@H](CO[Si](C)(C)C(C)(C)C)C3(OS(=O)(=O)C=C3N)[C@H]2O[Si](C)(C)C(C)(C)C)c(=O)n(C)c1=O,RT-L100I,CEM,IIIB,0.042 µg/mL
CCOCn1c(Cc2cc(C)cc(C)c2)c(CC)c(=O)[nH]c1=O,RT-Y181C,CEM,IIIB PYR(RT-Y181C),0.37 µg/mL
Cc1cn([C@@H]2O[C@H](CO[Si](C)(C)C(C)(C)C)C3(OS(=O)(=O)C(I)=C3N)[C@H]2O[Si](C)(C)C(C)(C)C)c(=O)n(C)c1=O,,CEM,IIIB,0.05 µM
C=CCn1c(=O)c(C)cn([C@@H]2O[C@H](CO[Si](C)(C)C(C)(C)C)C3(OS(=O)(=O)C=C3N)[C@H]2O[Si](C)(C)C(C)(C)C)c1=O,,PBL,IIIB,0.079 µM
CC(C)(C)OC(=O)N1CCCN(C(=O)OC(C)(C)C)CCN(C(=O)OC(C)(C)C)CCCN(CCCCC(=O)Nc2ccn([C@H]3CC[C@@H](CO)O3)c(=O)n2)CC1,,MT-4,,0.05 µM
Cc1occc1C(=S)Nc1ccc(Cl)c(/C=N/OC(C)(C)C)c1,RT-V106A,CEM,IIIB,0.13 µg/mL
CC(C)=CCN1Cc2cc(Cl)cc3[nH]c(=S)n(c23)C[C@@H]1C,RT-Y181C,CEM,IIIB-Nevirapine(0.1)(RT-Y181C),7.6 µg/mL
CC(C)=CCN1Cc2cc(Cl)cc3[nH]c(=S)n(c23)C[C@@H]1C,RT-Y181I,CEM,Pyr/BHAP(RT-Y181I),16 µM
CCOCn1c(Cc2cc(C)cc(C)c2)c(CC)c(=O)[nH]c1=O,RT-E138K,CEM,IIIB TSAO-T(RT-E138K),0.07 µM
Nc1ncnc2c1ncn2[C@H]1C=C[C@@H](CO)O1,,MT-4,IIIB,21 µM
O=C(O)P(=O)(O)O,RT-H208Y,HT4LACZ-1 + HT4 LacZ-1,LAI viral clone (RT-H208Y),67 µM
Nc1ccn([C@H]2CC[C@@H](CO)O2)c(=O)n1,,H9,IIIB,0.013 µM
Cc1ccnc2c1NC(=O)c1cccnc1N2C1CC1,RT-K103N,CEM,IIIB TIBO R82913-resistant (RT K103N),1.5 µg/mL
Nc1ncnc2c1ncn2[C@H]1CC[C@@H](CO)O1,,C8166,ROD,4 µM
Cc1cn([C@@H]2O[C@H](CO[Si](C)(C)C(C)(C)C)C3(OS(=O)(=O)C=C3N)[C@H]2O[Si](C)(C)C(C)(C)C)c(=O)n(C)c1=O,RT-V106A,CEM,Quin-0.02(RT-V106A),1.1 µM
C[C@H](Cn1cnc2c(N)nc(N)nc21)OCP(=O)(O)O,,C8166,IIIB,2.8 µM
O=c1[nH]cnc2c1ncn2[C@H]1CC[C@@H](CO)O1,,MT-4,IIIB,2.7 µM
C[C@H](Cn1cnc2c(N)ncnc21)OCP(=O)(O)O,RT-L100I,CEM,IIIB,1.1 µg/mL
Cc1cn([C@H]2C[C@H](F)[C@@H](CO)O2)c(=S)[nH]c1=O,,PBMC,,0.5 µM
C[C@@H](Cn1cnc2c(N)ncnc21)OCP(=O)(O)O,,CEM,IIIB,244 µM
CCOCn1c(Sc2ccccc2)c(CC)c(=O)[nH]c1=S,RT-L100I,CEM,IIIB BHAP(RT-L100I),0.07 µg/mL
Cc1cn([C@@H]2O[C@H](CO[Si](C)(C)C(C)(C)C)[C@@]3(OS(=O)(=O)C(/C=C/CO)=C3N)[C@H]2O[Si](C)(C)C(C)(C)C)c(=O)[nH]c1=O,,CEM,IIIB,>2 µM
Cc1cn([C@H]2C[C@H](F)[C@@H](COP(=O)(O)O)O2)c(=S)[nH]c1=O,,MT-2,,0.5 µM
C[C@H](COc1cc(N)nc(N)n1)OCP(=O)(O)O,RT-M41L V118I L210W T215Y,CEM,Clinical isolate C19,14 µg/mL

The first 8 rows once more:

CC(C)Nc1cccnc1N1CCN(C(=O)c2cc3cc(NS(C)(=O)=O)ccc3[nH]2)CC1 ; changes: RT-K103N ; cells: CEM ; strain or isolate: IIIB ; value: 0.27 µg/mL
Cc1cn([C@@H]2O[C@H](CO[Si](C)(C)C(C)(C)C)C3(OS(=O)(=O)C=C3N)[C@H]2O)c(=O)[nH]c1=O ; cells: CEM ; strain or isolate: IIIB ; value: >40 µM
Cc1cn([C@H]2C[C@H](N=[N+]=[N-])[C@@H](COC(=O)CCCC(=O)N3CCCN(C(=O)OC(C)(C)C)CCN(C(=O)OC(C)(C)C)CCCN(C(=O)OC(C)(C)C)CC3)O2)c(=O)[nH]c1=O ; cells: MT-4 ; value: 0.1 µM
Cc1cn([C@H]2C[C@H](N=[N+]=[N-])[C@@H](CO)O2)c(=O)[nH]c1=O ; changes: RT-Y181C ; cells: CEM ; strain or isolate: IIIB nevirapine-resistant (RT Y181C) ; value: 0.005 µM
Cc1cn([C@@H]2O[C@H](CO[Si](C)(C)C(C)(C)C)C3(OS(=O)(=O)C=C3N)[C@H]2O[Si](C)(C)C(C)(C)C)c(=O)n(C)c1=O ; changes: RT-E138K ; cells: CEM ; strain or isolate: IIIB ; value: >20 µM
Cc1cn([C@H]2C[C@H](N=[N+]=[N-])[C@@H](CO)O2)c(=O)[nH]c1=O ; cells: PBMC ; value: 0.1 µM
Cc1c(N)nc(N)nc1OCCOCP(=O)(O)O ; changes: RT-K65R S68G T69I V75T Q151M ; cells: CEM ; strain or isolate: Clinical isolate DE434.4 ; value: 1 µg/mL
CC(C)(C)OC(=O)N1CCCN(C(=O)OC(C)(C)C)CCN(C(=O)OC(C)(C)C)CCCN(CCCCC(=O)Nc2ccn([C@H]3CS[C@@H](COC(=O)CCCCN4CCCN(C(=O)OC(C)(C)C)CCN(C(=O)OC(C)(C)C)CCCN(C(=O)OC(C)(C)C)CC4)O3)c(=O)n2)CC1 ; cells: MT-4 ; value: 1 µM